Measurements: US10172829B2 (priority 2014, dated 2019)

Sequences of proteins named here, by UniProt entry; tags and fusion partners are left off.
UniProt P18177, whole entry: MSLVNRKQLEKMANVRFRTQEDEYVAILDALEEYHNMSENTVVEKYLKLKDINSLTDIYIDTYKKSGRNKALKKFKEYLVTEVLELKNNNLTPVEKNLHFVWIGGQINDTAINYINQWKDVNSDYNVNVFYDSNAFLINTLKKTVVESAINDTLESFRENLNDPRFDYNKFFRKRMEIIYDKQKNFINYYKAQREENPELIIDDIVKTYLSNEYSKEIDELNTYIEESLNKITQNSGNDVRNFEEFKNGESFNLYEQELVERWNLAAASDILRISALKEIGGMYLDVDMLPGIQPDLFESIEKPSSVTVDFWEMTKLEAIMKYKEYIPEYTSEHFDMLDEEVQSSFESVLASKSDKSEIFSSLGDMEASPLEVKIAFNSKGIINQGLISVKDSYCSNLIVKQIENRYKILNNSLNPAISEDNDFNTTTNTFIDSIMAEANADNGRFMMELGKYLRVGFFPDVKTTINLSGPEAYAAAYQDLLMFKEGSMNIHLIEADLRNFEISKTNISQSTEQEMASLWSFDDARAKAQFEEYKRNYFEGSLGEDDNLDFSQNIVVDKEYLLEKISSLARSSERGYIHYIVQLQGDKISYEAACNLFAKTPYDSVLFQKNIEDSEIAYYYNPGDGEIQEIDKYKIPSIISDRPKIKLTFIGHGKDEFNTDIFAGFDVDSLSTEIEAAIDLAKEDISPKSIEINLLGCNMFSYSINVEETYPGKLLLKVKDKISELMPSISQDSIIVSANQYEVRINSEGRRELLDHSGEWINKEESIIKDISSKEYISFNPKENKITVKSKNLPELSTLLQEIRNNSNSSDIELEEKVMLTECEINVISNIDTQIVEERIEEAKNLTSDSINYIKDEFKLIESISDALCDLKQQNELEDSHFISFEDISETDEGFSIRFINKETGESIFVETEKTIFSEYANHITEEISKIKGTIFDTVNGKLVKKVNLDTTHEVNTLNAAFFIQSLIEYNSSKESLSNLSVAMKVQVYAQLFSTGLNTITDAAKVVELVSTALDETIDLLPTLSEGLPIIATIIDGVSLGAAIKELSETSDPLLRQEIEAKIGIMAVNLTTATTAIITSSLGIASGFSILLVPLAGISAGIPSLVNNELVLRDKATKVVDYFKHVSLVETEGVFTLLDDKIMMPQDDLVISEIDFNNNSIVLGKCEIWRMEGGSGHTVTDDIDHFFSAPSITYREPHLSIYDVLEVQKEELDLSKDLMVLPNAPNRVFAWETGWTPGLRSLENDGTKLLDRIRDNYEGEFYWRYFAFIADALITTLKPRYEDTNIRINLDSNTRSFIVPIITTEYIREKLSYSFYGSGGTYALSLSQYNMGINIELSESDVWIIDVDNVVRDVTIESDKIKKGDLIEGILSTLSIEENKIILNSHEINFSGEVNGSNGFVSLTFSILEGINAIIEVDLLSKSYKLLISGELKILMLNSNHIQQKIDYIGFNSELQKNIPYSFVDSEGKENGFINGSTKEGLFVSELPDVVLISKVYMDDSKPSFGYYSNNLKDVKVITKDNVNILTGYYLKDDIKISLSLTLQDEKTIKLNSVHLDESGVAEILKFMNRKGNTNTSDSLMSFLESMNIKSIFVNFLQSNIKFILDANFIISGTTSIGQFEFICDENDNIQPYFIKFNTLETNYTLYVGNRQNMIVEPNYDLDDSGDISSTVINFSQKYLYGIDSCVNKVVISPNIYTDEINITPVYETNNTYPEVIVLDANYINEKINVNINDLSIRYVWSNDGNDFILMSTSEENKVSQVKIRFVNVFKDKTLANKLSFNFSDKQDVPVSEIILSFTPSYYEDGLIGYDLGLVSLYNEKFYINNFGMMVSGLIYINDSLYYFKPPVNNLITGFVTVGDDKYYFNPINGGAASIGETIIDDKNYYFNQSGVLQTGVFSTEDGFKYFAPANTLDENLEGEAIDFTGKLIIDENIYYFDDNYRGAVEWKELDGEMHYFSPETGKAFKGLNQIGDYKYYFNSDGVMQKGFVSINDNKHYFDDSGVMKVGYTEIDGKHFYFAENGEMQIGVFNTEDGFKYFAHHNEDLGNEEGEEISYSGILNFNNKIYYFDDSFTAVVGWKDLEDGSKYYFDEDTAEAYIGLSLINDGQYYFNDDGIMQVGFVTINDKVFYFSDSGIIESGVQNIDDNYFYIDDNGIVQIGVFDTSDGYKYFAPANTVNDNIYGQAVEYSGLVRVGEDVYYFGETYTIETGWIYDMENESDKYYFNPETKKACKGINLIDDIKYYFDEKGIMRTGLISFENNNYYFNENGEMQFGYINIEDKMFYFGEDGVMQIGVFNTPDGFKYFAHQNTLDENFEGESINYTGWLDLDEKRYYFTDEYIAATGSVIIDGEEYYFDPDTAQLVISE

Target: full length TcdB (Clostridioides difficile, UniProt P18177)
Settings: at low nanomolar concentrations

O=c1c2ccccc2[se]n1-c1ccccc1 [Ebselen, 2-phenyl-1,2-benzoselenazol-3-one]
IP6 induced release of the GTD domain: completely inhibited
